Assay results taken from US9309285B2, “Macrocyclic broad spectrum antibiotics” (priority 2012, dated 2016).

By UniProt entry, the sequences of proteins in these tests, tags left out.
UniProt P00803, whole entry: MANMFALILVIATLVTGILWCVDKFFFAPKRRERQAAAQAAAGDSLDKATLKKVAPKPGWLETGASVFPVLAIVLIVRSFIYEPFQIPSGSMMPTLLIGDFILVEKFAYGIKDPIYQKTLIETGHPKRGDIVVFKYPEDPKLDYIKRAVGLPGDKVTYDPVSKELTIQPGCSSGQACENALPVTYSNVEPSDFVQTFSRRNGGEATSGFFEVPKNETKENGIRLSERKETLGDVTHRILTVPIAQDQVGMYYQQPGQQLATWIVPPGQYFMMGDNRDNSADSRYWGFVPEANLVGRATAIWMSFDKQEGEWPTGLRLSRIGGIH
UniProt P0A070, whole entry: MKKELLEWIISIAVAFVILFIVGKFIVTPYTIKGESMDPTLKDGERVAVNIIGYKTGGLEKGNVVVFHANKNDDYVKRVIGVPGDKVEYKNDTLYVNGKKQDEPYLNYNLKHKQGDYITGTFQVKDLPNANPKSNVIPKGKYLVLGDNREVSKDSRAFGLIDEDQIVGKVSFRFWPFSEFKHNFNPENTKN

Legend:
[1] = test system: Escherichia coli MC4100 harboring the IMP4213; assay: MIC by broth micro-dilution (CLSI), E. coli; type: cell-based; conditions: E. coli MC4100 IMP4213 (increased outer-membrane permeability); cation adjusted Mueller Hinton Broth + 0.002% Tween-80; 35° C., 22 hours
Experimental: (§1) In vitro antimicrobial activity of each compound was determined by measuring minimal inhibitor concentrations (MICs) using the broth micro-dilution technique as approved by the Clinical and Laboratory Standards Institute (CLSI) (Methods for Dilution Antimicrobial Susceptibility Tests for Bacteria that Grow Aerobically; Approved Standard—Eighth Edition. CLSI document M07-A8. Wayne, Pa.: Clinical and Laboratroy Standards; 2009). Antibacterial activity was measure against two strains of bacteria: a Methicillin Resistant Staphylococcus aureus strain USA 300 (NRS384) and a strain of Escherichia coli MC4100 harboring the IMP4213, which results in increased outer-membrane permeability (B Martin and Silhavy T. Imp/OstA is required for cell envelope biogenesis in Escherichia coli. (2002) Molecular Microbiology, 45(5), 1289-1302). Cells were inoculated onto plates of Trypyticase Soy Agar or Luria Agar respectively and grown at 35° C. for 20 hours. Inocula suspensions were prepared by scraping cells into 1 ml of testing media (cation adjusted Mueller Hinton Broth supplemented with 0.002% v/v Tween-80) and diluting to a final OD600 nm of 0.01.
(§2) Test compounds were prepared in DMSO at a concentration of 10 mg/ml. […]

[2] = test system: Methicillin Resistant Staphylococcus aureus strain USA 300 (NRS384); assay: MIC by broth micro-dilution (CLSI), S. aureus; type: cell-based; conditions: MRSA USA 300 (NRS384); cation adjusted Mueller Hinton Broth + 0.002% Tween-80; 35° C., 22 hours
Experimental: as §1, §2

E. coli SPase = E. coli SPase (Escherichia coli, UniProt P00803); assay: SPase enzyme inhibition assay, fluorogenic peptide substrate, E. coli; type: biochemical; conditions: read-out: IC 50 (nM) E. coli; 3 nM E. coli SPase, 20 μM substrate, 10 minutes pre-incubation, room temperature
S. aureus SPase = S. aureus SPase (Staphylococcus aureus, UniProt P0A070); assay: SPase enzyme inhibition assay, fluorogenic peptide substrate, S. aureus; type: biochemical; conditions: read-out: IC 50 (nM) S. aureus; 10 nM S. aureus SPase, 20 μM substrate, 10 minutes pre-incubation, room temperature

**Q.** Which “MIC (μg/mL) E. coli” value [1] does the source give for CCCCc1ccc(-c2ccc(C(=O)N[C@@H](CCCCN)C(=O)N(C)[C@@H]3C(=O)N[C@@H](C)C(=O)N[C@H](C(=O)N[C@@H](C)B4O[C@@H]5C[C@@H]6C[C@@H](C6(C)C)[C@]5(C)O4)COCCCCc4cc3ccc4OC)cc2)cc1 here?
**A.** Its value is 1.4 µg/mL.

**Q.** What about the “MIC (μg/mL) S. aureus” value [2] of the same compound?
**A.** Its value is 4 µg/mL.

**Q.** What about the IC50 (E. coli SPase) of the same compound?
**A.** Its IC50 is 96 nM.

**Q.** And the IC50 (S. aureus SPase)?
**A.** The IC50 was 210 nM.
